Experimental findings from PMC2625307 are described below.

Assay [1] addresses HIV-1 WEAU 16-8M envelope (HIV-1 group M).
Assay [2] concerns the target SIVcpz GAB-2 62 fl envelope (SIVcpz (P.t.t)).
For assay [3], the target named is HIV-1 MN-8 envelope (HIV-1 group M).
Assay [4] has as its target SIVcpz GAB-1 fl envelope (SIVcpz (P.t.t)) (UniProt P17281).
The target in assay [5] is HIV-1 NL4.3 envelope (HIV-1 group M).
Assay [6] addresses HIV-1 MN-25 envelope (HIV-1 group M).
Assay [7] deals with HIV-1 SUMA d736-68 envelope (HIV-1 group M).
The target in assay [8] is HIV-1 SUMA d736-73 envelope (HIV-1 group M).

Consider “2-domain soluble CD4 (from UniProt P01730 26-208) (domain or fragment)”, for which the IC50 of neutralisation, HIV-entry assay on JC53BL-13 indicator cells in assay [1] amounted to 1 nM; in assay [2] it was 16 nM; in assay [3], 0.5 nM; in assay [4], 4 nM; in assay [5] it was 2 nM; in assay [6], 36 nM. For the same substance, the IC50 of neutralisation, HIV-entry assay on JC53BL-13 indicator cells in assay [7] is 2 nM; in assay [8] it was 56 nM.
